Data taken from the supplement of paper PMC9931576.
Human monoclonal antibodies against the spike receptor-binding domain (heavy:light variable regions). IC50 against pseudoviruses bearing the spike of naturally observed variants; lower = stronger; >10 µg/ml means not reached at the top dose. No active / inactive call. The stated detection limit is 0.0005 µg/ml; values near or below 0.001 µg/ml lie at the floor of the assay.

B1: BD56-505 (protein)
chain 1: QVQLVESGGGVVQPGRSLRVSCAASGFNFNTYGMHWVRQAPGKGLEWVALIWYDGSNKDYADSVKGRFTISRDNSKSTVYLQMNSLTAQDTAVYYCAKDRAAVDDAFEMWGQGTMVTVSS
chain 2: DIQMTQSPSSLSASVGDRVTLTCRASQSISSYLNWYQQKPGKAPKLLIYGASSLQSGVPSRFSGSGSGTDFTLTISSVQPEDFATYFCQQSYSNPYTFGLGTKLEIK
B2: BD56-506 (protein)
chain 1: EVQLVESGGGLIQPGGSLRLSCAASGFTVSSRYMNWVRQGPGKGLEWVSVIYTGGTTFYADSVKGRFTISRDNSKNSLYLQMNSLRHDDTALYYCARGQQEGWLQSGGFDIWGQGTMVTVSS
chain 2: QSALTQPPSASGSPGQSVTISCTGTSSDVGGSNYVSWYQQYPGKAPKLIISEVSKRPSGVPDRFSGSKSGNTASLTVSGLQAEDEADYYCSAYAGSHNFVFGTGTKVTVL
B3: BD56-509 (protein)
chain 1: QITLKESGPTLVKPTQTLTLTCTFSGFSLSTGGVAVGWVRQPPGKALEWLALLYWDDDKRYSPSLENRLTITKGSSKNQVVLTMTNMDPLDTAKYYCAHMTDTSTLFDYWGQGTLVTVSS
chain 2: QSALTQPASVSGSPGQSVTISCTGASSDVGDYNYVSWYQQHPGKAPKVLIYDVTKRPSGVSNRFSGSKSGNTASLTISGLQTEDEADYYCCSYTTTSVVFGGGTKLTVL
B4: BD56-510 (protein)
chain 1: QVQLVQSGAEVKKPGSSVKVSCKASGGTFSNNAINWVRQAPGQGLEWMGRIIPIFDITNYAQQFQGRVTITADKSTSAAYMELSRLRSADTAVYYCARGGMVGAEYYFDDWGQGTLVTVSS
chain 2: DIVMTQSPDSLAVSLGERATINCKSSQSLLYSSNNENHLAWYQQKPGQPPKLLLYWSSTRASGVPDRFSGSGSGTDFTLTISGLQAEDVAVYYCQQYYSTSSRTFGQGTKVEIK
B5: BD56-511 (protein)
chain 1: QVQLQESGPGLVKPSETLSLTCTVSGASISSNSYYWGWIRQPPGKGLEWIGSIYFRGDTYYKPSLQSRVTISVDTSKNQFSLNLNSVTAADTAVYYCAEGFCLSPNCYGPDYYFDKWGQGTLVTVSS
chain 2: SYELTQPPSMSVSPGQTARITCSGNAFPNQYAYWYQQKPGQAPVVVIYKDIERPSGIPERFSGSSSGTTVTLTINGVQAEDEADYYCQSADASGVEFGGGTKLTVL
B6: DH1155 (protein)
chain 1: QVQLQESGPGLVKPSGTLSLTCAVSGGSISSSNWWSWVRQPPGKGLEWIGEIYHSGSTNYNPSLKSRVTISVDKSKNQFSLKLSSVTAADTAVYYCAMVQGVMVYWGQGTLVTVSS
chain 2: DIQMTQSPSSLSASVGDRVTITCRASQGISNSLAWYQQKPGKAPKLLLYAASRLESGVPSRFSGSGSGTDYTLTISSLQPEDFATYYCQQYYSTLGRTFGQGTKVEIK

target: SARS-CoV-2 Omicron BA.1 spike pseudovirus; experiment: pseudovirus neutralization IC50; higher = weaker neutralization
Protocol: (§1)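 Single-round VSV luciferase pseudovirus mixed with antibody dilutions for 1 h and put on Huh-7 cells for about a day; IC50 from the dose curve.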

Compared with B1, B2 is 18-fold lower in “pseudovirus neutralization IC50” value: 0.018 µg/mL for the first, 0.001 µg/mL for the second.

B3 and B4 are within 1.5-fold of each other in “pseudovirus neutralization IC50” value: 0.001 µg/mL for the first, 0.00123 µg/mL for the second.

Going from B5 to B6, the “pseudovirus neutralization IC50” value rises from 1.46 µg/mL to > 10 µg/mL.

target: SARS-CoV-2 Omicron BA.2 spike pseudovirus; experiment: as above
Protocol: as §1

First: B1
Second: B2
The “pseudovirus neutralization IC50” value of the first is 1.9-fold higher: 0.000935 µg/mL for the first, 0.000482 µg/mL for the second.

Going from B3 to B4, the “pseudovirus neutralization IC50” value falls from 0.000969 µg/mL to 0.000515 µg/mL (1.9-fold).

Going from B5 to B6, the “pseudovirus neutralization IC50” value rises from 1.76 µg/mL to > 10 µg/mL.

target: SARS-CoV-2 Omicron BA.2.75 spike pseudovirus; experiment: as above
Protocol: as §1

Compared with B1, B2 is 2.5-fold lower in “pseudovirus neutralization IC50” value: 0.00341 µg/mL for the first, 0.00136 µg/mL for the second.

Going from B3 to B4, the “pseudovirus neutralization IC50” value rises from 0.000752 µg/mL to 0.00259 µg/mL (3.4-fold).

Compared with B5, B6 is higher in “pseudovirus neutralization IC50” value: 3.57 µg/mL for the first, > 10 µg/mL for the second.

target: SARS-CoV-2 Omicron BA.5 spike pseudovirus; experiment: as above
Protocol: as §1

Going from B1 to B2, the “pseudovirus neutralization IC50” value rises from 0.00355 µg/mL to 0.669 µg/mL (190-fold).

Going from B3 to B4, the “pseudovirus neutralization IC50” value rises from 0.000878 µg/mL to 0.228 µg/mL (260-fold).

Going from B5 to B6, the “pseudovirus neutralization IC50” value rises from 3.5 µg/mL to > 10 µg/mL.

target: SARS-CoV-2 Omicron BQ.1.1 spike pseudovirus; experiment: as above
Protocol: as §1

B1 and B2 cannot be ordered by “pseudovirus neutralization IC50” value: > 10 µg/mL for the first, > 10 µg/mL for the second.

B3 and B4 cannot be ordered by “pseudovirus neutralization IC50” value: > 10 µg/mL for the first, > 10 µg/mL for the second.

Compared with B5, B6 is higher in “pseudovirus neutralization IC50” value: 4 µg/mL for the first, > 10 µg/mL for the second.

target: SARS-CoV-2 Omicron XBB spike pseudovirus; experiment: as above
Protocol: as §1

B1 and B2 cannot be ordered by “pseudovirus neutralization IC50” value: > 10 µg/mL for the first, > 10 µg/mL for the second.

B3 and B4 cannot be ordered by “pseudovirus neutralization IC50” value: > 10 µg/mL for the first, > 10 µg/mL for the second.

First: B5
Second: B6
The “pseudovirus neutralization IC50” value of the first is lower: 3.26 µg/mL for the first, > 10 µg/mL for the second.

target: SARS-CoV-2 early D614G spike pseudovirus; experiment: as above
Protocol: as §1

First: B1
Second: B2
The “pseudovirus neutralization IC50” value of the first is 15-fold higher: 0.017 µg/mL for the first, 0.00115 µg/mL for the second.

B3 and B4 are within 1.5-fold of each other in “pseudovirus neutralization IC50” value: 0.001 µg/mL for the first, 0.00137 µg/mL for the second.

Going from B5 to B6, the “pseudovirus neutralization IC50” value falls from 1.55 µg/mL to 0.213 µg/mL (7.3-fold).
